Results deposited as PubChem BioAssay AID624099 (ICCB-Longwood, 2012)
Here is an unselected part of about 21,000 reagents. 497 of all reagents (2.4%) count as active. 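Higher z means weaker E2 silencing; only reporter increases were scored, and knock-downs that hurt cell survival may mask genuine repressor factors.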 Entries without a mark were called inactive.

Purpose: 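Knock-downs relieving repression by E2 of an HPV18 LCR luciferase reporter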 (primary screen)
Cells: human C33A cervical carcinoma cells (HPV-negative) stably expressing BPV1 E2 and an HPV18 LCR luciferase reporter
Knock-down reagent: siRNA pool against human genes, 40 nM
Timing: 72 h
Measurement: 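Per-well luciferase luminescence, z-scored on each plate against the plate mean and SD with control wells left out, then averaged across three replicate plates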
Reading the numbers: mean z-score and z-score: higher = stronger reporter signal, weaker E2 silencing
Rule for the call: 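Hit if mean z-score reaches 2 and two or more of three replicate z-scores also reach 2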

| target gene | mean z-score | z-score, replicate A | z-score, replicate B | z-score, replicate C |
| --- | --- | --- | --- | --- |
| SENP6 (SUMO specific peptidase 6) | 0.55 | 0.7 | 0.41 | 0.54 |
| DGCR6L (DiGeorge syndrome critical region gene 6 like) | -1.98 | -1.96 | -2.18 | -1.81 |
| PATE4 (prostate and testis expressed 4) | 0.42 | 1.26 | -0.09 | 0.08 |
| ZNRF4 (zinc and ring finger 4) | 1.62 | 2.34 | 1.43 | 1.1 |
| CCL14 (C-C motif chemokine ligand 14) | 0.79 | 0.62 | 0.84 | 0.93 |
| RAC3 (Rac family small GTPase 3) | 0.37 | 0.51 | 0.44 | 0.16 |
| CT55 (cancer/testis antigen 55) | 0.3 | 0.54 | 0.34 | 0.02 |
| EHF (ETS homologous factor) | -0.23 | -0.12 | -0.42 | -0.16 |
| SNU13 (small nuclear ribonucleoprotein 13) | -1.73 | -1.58 | -1.91 | -1.68 |
| LBX2-AS1 (LBX2 antisense RNA 1) | -0.07 | -0.2 | -0.18 | 0.17 |
| HDDC3 (HD domain containing 3) | 0.92 | 0.9 | 0.99 | 0.88 |
| HECW1 | 1.75 | 1.67 | 1.91 | 1.67 |

Continued (3 carried over from the part before).
| target gene | mean z-score | z-score, replicate A | z-score, replicate B | z-score, replicate C |
| --- | --- | --- | --- | --- |
| LBX2-AS1 (LBX2 antisense RNA 1) | -0.07 | -0.2 | -0.18 | 0.17 |
| HDDC3 (HD domain containing 3) | 0.92 | 0.9 | 0.99 | 0.88 |
| HECW1 | 1.75 | 1.67 | 1.91 | 1.67 |
| KDM4A (lysine demethylase 4A) | -0.49 | 0.01 | -0.77 | -0.72 |
| TAS2R9 (taste 2 receptor member 9) | -2.13 | -2.18 | -2.2 | -2.01 |
| KLHL32 (kelch like family member 32) | 2.24 (active) | 2.2 | 2.05 | 2.46 |
| P2RY12 (purinergic receptor P2Y12) | -0.92 | -0.91 | -0.8 | -1.06 |
| RPN2 (ribophorin II) | -0.75 | -0.79 | -0.73 | -0.72 |
| SCAPER (S-phase cyclin A associated protein in the ER) | 1.8 | 2.29 | 1.71 | 1.4 |
| TUSC7 (tumor suppressor candidate 7) | 0.42 | 0.4 | 0.25 | 0.61 |
| MAL2 (mal, T cell differentiation protein 2) | 0.21 | 0.02 | 0.3 | 0.3 |
| RNF169 (ring finger protein 169) | -2.19 | -2.3 | -2.15 | -2.1 |
| ANXA6 (annexin A6) | -0.52 | -0.29 | -0.64 | -0.64 |
| MAIP1 (matrix AAA peptidase interacting protein 1) | -0.46 | -0.93 | -0.63 | 0.18 |
